Results of unrelated studies side by side (data: NIAID ChemDB).

Shared fields: cytotoxicity tests; cells: MDCK; endpoint: CC50

CCn: concentration that lowers growth or viability of the cells by n%. Rows are shuffled and stem from different studies. Two numbers with a dash give a range or band. An empty or dashed field is not shown.

SMILES,method,value
Cc1ccc(O)c(C(=O)N[C@H]2CCC34CCC3N(C(C)C)C4C2)c1,,100 µg/mL
CC#Cc1cn([C@@H]2O[C@H](COP(=O)(O)Oc3ccccc3Cl)[C@@H](O)[C@@H]2O)c(=O)[nH]c1=O,,305 µM
CCOc1ncn(-c2ccc(NC(=S)NC3O[C@H](CO)[C@@H](O)[C@H](O)[C@H]3O)cc2)n1,,>200 µg/mL
CCOC(=O)c1cc(C(=O)O)c(=O)n2c1[nH]c1ccccc12,,200 µg/mL
CC1=CC(=O)C=C(C/C=C(\C)CC/C=C(\C)CC/C=C(\C)CC[C@@H](C)C(C)(C)O)C1=O,,32 µM
CCC(CC)[C@H](NC(C)=O)[C@@H]1C[C@@H](C(=O)O)C[C@H]1N=C(N)N,neutral red,>1000 µM
CC1(C)C[C@H](O)C[C@](C)(CNC(=S)c2cccc(C(F)(F)F)c2)C1,,5 µg/mL
C/C1=C\C=C\C2(C)C=C(CO)C(C)CC23OC([O-])C(C3=O)C(O)/C=C/C2(C)C=C(C=O)C(C)CC23OC([O-])C(C3=O)C(O)/C(C)=C/C=C/C2C=C(CO)C(C)CC23OC([O-])C(C3=O)C(O)/C=C/C2(C)C=C(C=O)C(C)CC23OC([O-])C(C3=O)C1O,,>100 µg/mL
CC1(C)C[C@H](O)C[C@](C)(CNC(=S)c2cccc(Cl)c2)C1,,8.5 µg/mL
Cc1ccc(O)c(C(=O)NCCN2[C@H](C)CC[C@@H]3CCCC[C@H]32)c1,,20–30 µg/mL
CC(C)CS[C@H]1C[C@@H](n2cnc3c(N)ncnc32)[C@H](O)[C@@H]1O,,>200 µg/mL
Cc1ccc(C(=S)NC[C@@]2(C)C[C@@H](O)CC(C)(C)C2)c(C)c1,,30 µg/mL
CCCOc1ncn(-c2ccc(NC(=S)Nc3cnccn3)cc2)n1,,100 µg/mL
CCOC(=O)C1=C[C@@H](OC(CC)CC)[C@H](NC(C)=O)[C@@H](N)C1,neutral red,>1000 µM
Cc1ccc(O)c(C(=O)NC2CCNCC2)c1,,100 µg/mL
CC(C)Oc1ccccc1CNC(=O)c1ccc2cnccc2n1,,20 µM
CC(C)C1CC(CO)(CNc2cc(Cl)nc(N)n2)C1,,2.5–6.3 µM
N#Cc1cc(C#N)c2[nH]c3ccccc3n2c1=O,,77 µg/mL
Nc1nc(Cl)cc(NCCC2(CO)CCC2)n1,,>120 µM
C/C1=C\C=C\C2(C)C=C(CO[C@H]3O[C@H](CO)[C@H](O)[C@H](O)[C@H]3O)C(C)CC23OC([O-])C(C3=O)C(O)/C=C/C2(C)C=C(CO)C(C)CC23OC([O-])C(C3=O)C(O)/C(C)=C/C=C/C2C=C(CO[C@H]3O[C@H](CO)[C@H](O)[C@H](O)[C@H]3O)C(C)CC23OC([O-])C(C3=O)C(O)/C=C/C2(C)C=C(CO)C(C)CC23OC([O-])C(C3=O)C1O,,>100 µg/mL
CCOC(=O)c1ccc(OC(=O)CCCCCN=C(N)N)cc1.COS(=O)(=O)O,MTT,580 µg/mL
Cc1ccc(O)c(C(=O)N[C@H]2CCC34CCC3N(C)C4C2)c1,,100 µg/mL
CCCCCCCCCCCCCCCCO[C@H]1N([C@H]2C[C@H](N=[N+]=[N-])[C@@H](CO)O2)C(=O)NC(=O)[C@]1(C)Br,MTT,>500 µg/mL
Oc1ccc([C@H]2Oc3ccc(/C=C/c4cc(O)cc(O)c4)cc3[C@@H]2c2cc(O)cc(O)c2)cc1,MTT,37.04 µg/mL
Nc1nccc2c1ncn2[C@@H]1C[C@H](CO)[C@@H](O)[C@H]1O,,>200 µg/mL
COc1ccccc1CNC(=O)C1=Cc2ccncc2CC1,,169 µM
COc1nc2c(nc(N)n2[C@@H]2O[C@H](CO)[C@@H](O)[C@H]2F)c(=O)[nH]1,MTT,>500 µM
COC1(OC)CC(CO)(CNc2cc(Cl)nc(N)n2)C1,,52 µM
CC#Cc1cn([C@@H]2O[C@H](COP(=O)(O)OCC(Cl)(Cl)Cl)[C@@H](O)[C@@H]2O)c(=O)[nH]c1=O,,185 µM
COc1ncc2ncn([C@@H]3O[C@H](CO)[C@@H](O)[C@H]3F)c2n1,MTT,>500 µM
CC#Cc1cn([C@@H]2O[C@H](COP(=O)(O)Oc3ccc(OC)cc3)[C@@H](O)[C@@H]2O)c(=O)[nH]c1=O,,>500 µM
Nc1nc(Cl)c(/C=N/O)c(NCC2(CO)CC(CCc3ccccc3)C2)n1,,0.18–0.26 µM
CCOc1ncn(-c2ccc(NC(=S)NC34CC5CC(CC(C5)C3)C4)cc2)n1,,>200 µg/mL
C/C1=C\C=C\C2(C)C=C(CO[C@H]3O[C@H](CO)[C@H](O)[C@H](O)[C@H]3O)C(C)CC23OC([O-])C(C3=O)C(O)/C=C/C2(C)C=C(C=O)C(C)CC23OC([O-])C(C3=O)C(O)/C(C)=C/C=C/C2C=C(CO[C@H]3O[C@H](CO)[C@H](O)[C@H](O)[C@H]3O)C(C)CC23OC([O-])C(C3=O)C(O)/C=C/C2(C)C=C(C=O)C(C)CC23OC([O-])C(C3=O)C1O,,>100 µg/mL
CCC(CC)O[C@@H]1C=C(C(=O)O)C[C@H](N)[C@H]1NC(C)=O,neutral red,>100 µM
O=C(Cc1cnc2[nH]c3ccccc3n2c1=O)c1ccccc1,,40 µg/mL
COc1cc(OC)cc([C@H]2c3cc(/C=C/c4cc(O)cc(O)c4)ccc3O[C@@H]2c2ccc(O)cc2)c1,MTT,12.74 µg/mL
Nc1nc(Cl)cc(NCC2(CO)CCC2)n1,,33–58 µM
CC1(C)C[C@H](O)C[C@](C)(CNC(=S)c2cccc(F)c2)C1,,20 µg/mL
CC(=O)N[C@H]1[C@H]([C@H](OC(=O)NCCCCCCNC(=O)CCC(NC(=O)C(F)(F)F)C(=O)NCC(=O)NCCCCCCNC(=O)O[C@@H]([C@@H]2OC(C(=O)O)=C[C@H](N=C(N)N)[C@H]2NC(C)=O)[C@H](O)CO)[C@H](O)CO)OC(C(=O)O)=C[C@@H]1N=C(N)N,,>1 µg/mL
CCCC(CCC)C(NC(C)=O)C1CC(C(=O)O)CC1N=C(N)N,neutral red,>1000 µM
Cc1ccc(C(=S)NC[C@@]2(C)C[C@H](O)CC(C)(C)C2)cc1,,40 µg/mL
Cc1ccc(O)c(C(=O)NCCCN2[C@H](C)CC[C@@H]3CCCC[C@@H]32)c1,,90 µg/mL
N#Cc1cc(CC(=O)c2ccccc2)c(=O)n2c1sc1ccccc12,,200 µg/mL
Nc1ncnc2c1ncn2[C@@H]1O[C@H](CO)[C@@H](O)[C@H]1F,MTT,320 µM
CCCOc1ncn(-c2ccc(NC(=S)Nc3cccc(O)c3)cc2)n1,,100 µg/mL
CCOC(=O)c1cc(C#N)c2[nH]c3ccccc3n2c1=O,,176 µg/mL
Nc1nc(Cl)cc(NCC2(CO)CC(CCCc3ccccc3)C2)n1,,0.097–0.31 µM
CC#Cc1cn([C@@H]2O[C@H](COP(=O)(O)OCCCCCCCCCCCC)[C@@H](O)[C@@H]2O)c(=O)[nH]c1=O,,131 µM
CCOc1ncn(-c2ccc(NC(=S)Nc3cnccn3)cc2)n1,,20 µg/mL
Nc1nc2c(ncn2[C@@H]2O[C@H](CO)[C@@H](O)[C@H]2F)c(=O)[nH]1,MTT,437 µM
CC#Cc1cn([C@@H]2O[C@H](COP(=O)(N[C@@H](C)C(=O)OC)Oc3ccccc3)[C@@H](O)[C@@H]2O)c(=O)[nH]c1=O,,>500 µM
Cc1ccccc1C(=S)NC[C@@]1(C)C[C@@H](O)CC(C)(C)C1,,2 µg/mL
Nc1ncc(Br)c(NCC2(CO)CC(CCc3ccccc3)C2)n1,,0.46–0.77 µM
COS(=O)(=O)O.N=C(N)c1ccc2cc(OC(=O)c3ccc(N=C(N)N)cc3)ccc2c1,MTT,150 µg/mL

4 of the rows above, restated:

SMILES	method	value
CC(C)C1CC(CO)(CNc2cc(Cl)nc(N)n2)C1		2.5–6.3 µM
CC(=O)N[C@H]1[C@H]([C@H](OC(=O)NCCCCCCNC(=O)CCC(NC(=O)C(F)(F)F)C(=O)NCC(=O)NCCCCCCNC(=O)O[C@@H]([C@@H]2OC(C(=O)O)=C[C@H](N=C(N)N)[C@H]2NC(C)=O)[C@H](O)CO)[C@H](O)CO)OC(C(=O)O)=C[C@@H]1N=C(N)N		>1 µg/mL
O=C(Cc1cnc2[nH]c3ccccc3n2c1=O)c1ccccc1		40 µg/mL
CCOc1ncn(-c2ccc(NC(=S)NC3O[C@H](CO)[C@@H](O)[C@H](O)[C@H]3O)cc2)n1		>200 µg/mL